{
  "source": "patent US9878058B2",
  "about": "“SHK-based pharmaceutical compositions and methods of manufacturing and using the same” (Kineta One, LLC, priority 2011, dated 2018)",
  "key": {"[1]": {"assay": "Long-term (up to 12 month) stability of ShK-186 in P6N formulation", "assay_type": "physicochemical", "experimental": "The short-term stability of ShK-186 formulated in P6N is studied in three sets of conditions designed to replicate clinical use: 72-hour storage at variable temperatures, and 24-hour storage in sterile plastic syringes. Long-term stability is tested over 1, 3, 6 and 12 months of storage at refrigerated (such as 5° C.) and freezing (such as −70° C., −20° C.) temperatures.\nFor short-term studies, ShK-186 is diluted to a final concentration of 1 mg/ml using either 5% (w/v) dextrose or 0.9% (w/v) saline, or WFI solutions. A short-term stability study spans 72 hours of storage at refrigerated (such as 5° C.) and elevated (such as 40° C.) temperatures in each diluent. ShK-186 diluted in WFI, without preservatives, serves as a control. For long-term studies, ShK-186 is formulated in P6N at either 25 or 50 mg/ml, then aliquots are used to prepare samples having a final concentration as indicated, in mg/ml.\nThe stability of ShK-186 at three concentrations, 10, 25, and 50 mg/ml, under refrigerated and frozen storage temperatures is determined. Lyophilized ShK-186 is dissolved in P6N formulation to achieve these final concentrations of ShK-186. Each formulated solution is sterilized with 0.2 μm filters, and transferred into suitable sterile vials, such as type I borosilicate glass 3 cc vials at a fill volume of 0.5 ml per vial, under sterile conditions. The vials are stored at 5° C., −20° C., and −70° C. for testing at time points of zero, three and six months.\nSkH-186 was formulated at 10 mg/ml and 25 mg/ml in 10 mM Sodium Phosphate, pH 6.0, containing 0.8% NaCl and 0.05% Polysorbate 20, and incubated for 12 months at 5° C., −20° C., and −70° C. […] Based on SE-HPLC results, the overall percentage of monomer for both formulations at the end of the study was about 98%."}, "[2]": {"assay": "Surfactant screening under agitation (visual, SEC-HPLC)", "assay_type": "physicochemical", "experimental": "In order to identify surfactant(s) for possible inclusion in the pharmaceutical compositions, the polypeptide is formulated in buffer, to which test surfactants are added individually, and compared with samples having no surfactant. Surfactants tested include polysorbate 20, polysorbate 80, and pluronic F68 at concentrations beginning with 0.01%.\nTo determine the effect of the surfactant, test samples and controls are subjected to agitation or no agitation. Test samples and controls are then analyzed by size-exclusion-HPLC (SEC-HPLC or SE-HPLC) to monitor changes in characteristics, including soluble aggregation and loss of monomer recovery.\nUsing this method, ShK-186 polypeptide preparations were subject to constant agitation for up to four hours at pH 5.8, in the presence of polysorbate 20 (0.01%), polysorbate 80 (0.01%), or pluronic F68 (0.10%) (Sigma-Aldrich)."}},
  "data": [
    {"smiles": "CC[C@H](C)[C@@H]1NC(=O)[C@@H](NC(=O)[C@H](CO)NC(=O)[C@H](CCCNC(=N)N)NC(=O)COCCOCCNC(=O)[C@@H](N)Cc2ccc(OP(=O)(O)O)cc2)CSSC[C@@H](C(N)=O)NC(=O)[C@H]([C@@H](C)O)NC(=O)CNC(=O)[C@@H]2CSSC[C@@H]3NC(=O)[C@H](CCC(N)=O)NC(=O)[C@H](Cc4ccccc4)NC(=O)[C@H](C)NC(=O)[C@H]([C@@H](C)O)NC(=O)[C@H](CSSC[C@H](NC(=O)[C@H](Cc4ccccc4)NC(=O)[C@H](CO)NC(=O)[C@H](CC(C)C)NC(=O)[C@H](CCCNC(=N)N)NC(=O)[C@H](Cc4ccc(O)cc4)NC(=O)[C@H](CCCCN)NC(=O)[C@H](CCSC)NC(=O)[C@H](CO)NC(=O)[C@H](Cc4c[nH]cn4)NC(=O)[C@H](CCCCN)NC3=O)C(=O)N[C@@H](CCCNC(=N)N)C(=O)N[C@@H](CCCCN)C(=O)N[C@@H]([C@@H](C)O)C(=O)N2)NC(=O)[C@H](CCCNC(=N)N)NC(=O)[C@H](CO)NC(=O)[C@H](CCCCN)NC(=O)[C@@H]2CCCN2C(=O)[C@H]([C@@H](C)CC)NC(=O)[C@H]([C@@H](C)O)NC(=O)[C@H](CC(=O)O)NC1=O", "note": "[ShK-186]", "values": [
      {"measurement": "% HMV by SE-HPLC", "setting": "[1]; 12 months, 5° C.", "result": 1.19, "unit": "%"},
      {"measurement": "Percentage of LMW species by SE-HPLC", "setting": "[1]; 12 months, all temperatures", "result": "remained relatively unchanged"},
      {"measurement": "% HMV by SE-HPLC", "setting": "[1]; 12 months, frozen samples", "result": 0.95, "unit": "%"},
      {"measurement": "Overall percentage of monomer by SE-HPLC", "setting": "[1]; end of 12 month study, both formulations", "result": "about 98%"},
      {"measurement": "Soluble aggregation by SEC-HPLC", "setting": "[2]; polysorbate 20 at 0.05%, pH lowered from 5.8 to 5.1", "result": "absence of soluble aggregation"},
      {"measurement": "Appearance after constant agitation", "setting": "[2]; up to four hours, pH 5.8, polysorbate 20 (0.01%), polysorbate 80 (0.01%), pluronic F68 (0.10%) or no surfactant", "result": "haziness with increased turbidity"}
    ]}
  ]
}
